Measurements as given in US11746116B2, “Antibiotic resistance breakers” (KING'S COLLEGE LONDON, priority 2017, dated 2023).

Assay: Body weight and clinical observations in the murine thigh infection study
Details: individual mice, day −1 (before treatment)

C[C@H]1COc2c(N3CC[C@@H](Nc4ncccn4)C3)c(F)cc3c(=O)c(C(=O)O)cn1c23
Bodyweight raw data, day −1 (20 mg/kg group): 29.1 | Bodyweight raw data, day −1 (50 mg/kg group): 29.1
